The structures appear in SMILES notation.

In one series the test system is HepG2. Briefly: Cytotoxicity in HepG2 cells (alamarBlue, 72 h). To be noted: calculated between HepG2 cells and intramacrophagic amastigotes. Here is the method:
(§1) To this end, we calculated SIs from 16 preselected results from the ex vivo system. With this aim, dose–response curves were performed in duplicate across at least three independent experiments using RAW 264.7 mouse macrophages (as a model of host cells harboring amastigotes) and HepG2 (as a model for assessing systemic toxicity).
(§2) To evaluate the safety of the selected compounds, two cell lines were employed: RAW 264.7 (a mouse macrophage-derived cell line) and HepG2 (a human hepatoma cell line). Furthermore, to determine the intestinal tolerance relevant to potential oral administration, mouse intestinal organoids were prepared.
(§3) RAW 264.7 and HepG2 were routinely cultured under standard conditions. RAW 264.7 cells were maintained in RPMI medium (Gibco) supplemented with, 25 mM HEPES, 24 mM NaHCO3, 2 mM L-glutamine, mixture of antibiotics and 10% FBS. HepG2 cells were cultured in DMEM/F-12 (Gibco) and supplemented 10% of FBS. For cytotoxicity assays, 10,000 cells per well were seeded into 96-well plates and incubated overnight at 37 °C with 5% of CO2. Subsequently, 2-fold serial dilutions of the compounds were added and incubated for 72 h. Cell viability using the alamarBlue™ assay according to the manufacturer’s instructions, and fluorescence was measured with a Varioskan™ LUX microplate reader (ThermoFisher Scientific, Waltham, MA, USA). Non-linear regression analyses were performed using SigmaPlot^TM software (version 10.0) to calculate CC50. Data were obtained from at least three independent experiments performed in duplicate.

The test system of a further series is RAW 264.7. Description: Cytotoxicity in RAW 264.7 cells (alamarBlue, 72 h). The conditions noted are these: calculated between RAW 264.7 cells and intramacrophagic amastigotes. Here is the method: as §1, §2, §3

On to `COc1ccc2cc3[n+](cc2c1OC)CCc1cc2c(cc1-3)OCO2` [Berberine], for which the SI2 with HepG2 is above 11.4. For the same compound, in the series on RAW 264.7, the SI1 is recorded as above 11.4.

For the compound `COc1cc2c(cc1OC)-c1c(C)c3ccc(OC)c(OC)c3c[n+]1CC2` [Dehydrocorydaline], in the series on HepG2, the SI2 is above 3.7. In addition, the SI1 in the series with RAW 264.7 is reported as above 3.7.

For the compound `COc1ccc2c(c1OC)CN(C)c1c-2ccc2cc3c(cc12)OCO3` [Dihydrochelerythrine], the SI2 in the series on HepG2 is reported as above 4.8. Also, the SI1 in the series with RAW 264.7 is listed as above 4.8.

For `CN1C(=O)/C(=C2/C(=O)Nc3ccccc32)c2ccccc21` [Meisoindigo], the SI2 in the series on HepG2 is reported as 2.2. Also, in the series with RAW 264.7, the SI1 is listed as 1.6.

Regarding `COc1cc2c[n+](C)c3c4cc5c(cc4ccc3c2cc1OC)OCO5` [Nitidine], the SI2 in the series on HepG2 was 0.7. Moreover, the SI1 in the series on RAW 264.7 is on record as 3.1.

Values taken from publication PMC12608155, “Discovery of Potential Antileishmanial Compounds Through Phenotypic Screening of an Alkaloid Library” (Molecules, 2025).
